Where a name gives a salt, the structure may show the parent alone.
What was measured:
[1] = test system: Norwalk virus (replicon) GT1; experiment: Norwalk virus replicon (GT1) in HG23, RNA hybridization; assay type: cell-based, Norwalk virus (human norovirus); set-up: SI90: unit not given beside the values
[2] = test system: Poliovirus type 3 WM-3; assay type: cell-based; set-up: SI90: unit not given beside the values
[3] = test system: Enterovirus 71 Tainan/4643/98; assay type: cell-based; set-up: SI90: unit not given beside the values
[4] = test system: HIV-1 strain LAI; experiment: HIV-1 replication reverse transcriptase (RT) assay in PBMC; assay type: cell-based, human immunodeficiency virus type 1; conditions: HIV-1LAI
[5] = test system: Herpes simplex virus type 1 E-377; experiment: Herpes simplex virus type 1 antiviral screen in primary HFF-1 (CellTiter-Glo); assay type: cell-based; conditions: CC50/EC50
[6] = test system: HIV-1 LAV; experiment: Inhibition of inducible HIV-1 LAV replication in OM-10.1 (RT values); assay type: cell-based, human immunodeficiency virus type 1; conditions: OM-10.1
[7] = test system: MNV MNV-1; experiment: Murine norovirus (MNV-1) antiviral screen in RAW267.4; assay type: cell-based; set-up: SI90: unit not given beside the values

## C[C@@]1(O)[C@H](O)[C@@H](CO)O[C@H]1n1ccc(N)nc1=O [RS-446]
[1]; CC50/EC50, Norovirus/1968/US, HG23, Replicon
  SI50: >44

## CCOC(=O)c1ccc(OCCC2CCN(c3ccc(C)nn3)CC2)cc1 [pirodavir, reference compound]
[2]
  SI50 (CC50/EC50): >31
  SI90: 56
[3]
  SI50 (CC50/EC50): >278
  SI90: >43

## Nc1ccn([C@@H]2O[C@H](CO)[C@@H](O)[C@H]2O)c(=O)[n+]1[C-2][n+]1c(N)ccn([C@@H]2O[C@H](CO)[C@@H](O)[C@H]2O)c1=O [TCY-1, Bis(cytidin-3-ium-3-yl)methanediide monohydrochloride×1.25H2O]
[4]
  SI50 (CC50/EC50): >345

## Nc1nc2c(ncn2COCCO)c(=O)[nH]1 [Aciclovir]
[5]
  SI50: >39

## O=c1c2ccccc2n2nnc3ccc(NCCCN4CCN(CCCNc5ccc6nnn7c8ccccc8c(=O)c5c67)CC4)c1c32 [Temacrazine (TMZ)]
[6]
  ANTIVIRAL INDEX (AI) 50%: >13.4
  ANTIVIRAL INDEX (AI) 90%: >1.56
  ANTIVIRAL INDEX (AI) 95%: >1.18

## CC#CC1(O)CCC2C3CCC4=CC(=NNC(=S)Nc5ccccc5)CCC4=C3C(c3ccc4c(c3)OCO4)CC21C.CC#CC1(O)CCC2C3CCC4=CC(=O)CCC4=C3C(c3ccc4c(c3)OCO4)CC21C.O (mixture of isomers) [PT156, 1/17(11β,17β)-17-Hydroxy-11-[3,4-(methylenedioxy)phenyl]-17-(1-propyn-1-yl)estra-4,9-dien-3-one (ORG34517)×(2EZ)-2-{(11β,17β)-17-hydroxy-11-[3,4-(methylenedioxy)phenyl]-17-(1-propyn-1-yl)estra-4,9-dien-3-ylidene}-N-phenylhydrazinecarbothioamide [74.1% (E), 25.9% (Z)] 11/17hydrate]
[1]; NV GT1, Example 10
  SI50: 1
  SI90: 1
[7]; Example 11
  SI90: 114
[7]; Example 11, ratio CC50 / EC50
  SI50: 363

— patent publication US9598459B2, “Pharmaceutical compositions and methods” (priority 2015, dated 2017)
